A mixed list of measured activities; the numbers were collected in NIAID ChemDB.

Shared fields: tests in culture; agent: Candida albicans; read-out: zone

Zone: diameter of growth inhibition. Two numbers with a dash give a range or band. An empty or dashed field is not shown. Lines come from different laboratories, so protocols vary.

structure	strain	method	tested at	result
O=c1c(O)c(-c2ccc(Cl)cc2)oc2ccccc12	-	agar diffusion	100 µg/mL	14 mm
NC(=NCCCCCCN=C(N)/N=C(\N)Nc1ccc(Cl)cc1)/N=C(\N)Nc1ccc(Cl)cc1	ATCC 10231	agar diffusion	2000 µg/mL	11.33 mm
CC(=O)Oc1c(-c2ccco2)oc2ccc(Cl)cc2c1=O	-	agar diffusion	100 µg/mL	25 mm
CCCc1c(=O)[nH]c(=O)n2[nH]nnc12	IFO 0583	agar diffusion / agar	200 µg/disc	<10 mm
Cc1cc(Cl)nc(NC(c2ccc(O)cc2O)P(=O)(Oc2ccccc2)Oc2ccccc2)n1	-	agar diffusion / agar	10 µg/mL	15 mm
CN[C@@H]1[C@@H](O)[C@@H](O[C@@H]2[C@@H](O)[C@H](O[C@H]3O[C@H](CN)CC[C@H]3N)[C@@H](N)C[C@H]2N)OC[C@]1(C)O	ATCC 10231	agar diffusion	10 µg	6 mm
C[C@@H]1[C@H](O)[C@@H](C)/C=C/C=C/CC/C=C/C=C/C=C/C=C/C(O[C@H]2O[C@H](C)[C@@H](O)[C@H](N)[C@@H]2O)CC2O[C@](O)(CC(O)C(O)CCC(O)CC(O)CC(O)CC(=O)O[C@H]1C)CC(O)C2C(=O)O	-	agar diffusion / agar	40000 µg/mL	22 mm
CCCCc1nc(Cl)c(-c2cc(-c3ccc4oc5ccccc5c4c3)nc3c2C(=O)c2ccccc2-3)n1Cc1ccccc1	MTCC 7253	agar diffusion	10 µg/disc	10 mm
COc1ccc(-c2oc3ccc(Cl)cc3c(=O)c2OC(C)=O)cc1OC	-	agar diffusion	100 µg/mL	18 mm
O=C1C=CC(=O)c2c(O)cccc21	FRCA	agar diffusion	100 µg/well	0 mm
C(/C=C/c1ccccc1)=NCCNCCN=C/C=C/c1ccccc1.[I][Hg][I]	-	agar diffusion	30000 µg/mL	42 mm
O=C(N[C@H]([C@H](O)CNCc1cccc(I)c1)C(F)(F)c1ccccc1)OCc1ccccc1	Hongo	agar diffusion	50 µg/disc	0 mm
Cc1ccc(O)c(/C=N/NC(=O)Nc2nc(-c3ccccc3)cs2)c1	-	agar diffusion	100 µg/mL	14 mm
Clc1ccc(C(Cn2ccnc2)OCc2ccsc2Cl)c(Cl)c1	-	agar diffusion / agar	0.5 mg/mL	22 mm
CCC(C)[C@H](NC(=O)CSC1=C(C)C(=O)c2cccc(OC)c2C1=O)C(=O)OC	FRCA	agar diffusion	100 µg/well	0 mm
CCn1cc(C(=O)O)c(=O)c2ccc(C)nc21	WILD TYPE	agar diffusion	30 µg	6 mm
CCO[C@@H]1C[C@@H]([C@H](C)[C@H]2CC[C@]3(C)C4=C(CC[C@@]23C)[C@]2(C)CC[C@H](O)C(C)(C)[C@H]2CC4)CC[C@@H]1C	MTCC 183	agar diffusion / agar	2 µg/disc	18 mm
CN1CC2=C(C(=O)c3ccccc3C2=O)C12C(=O)c1ccccc1C2=O	-	agar diffusion	50 µg/mL	0 mm
CCCc1c(N2CCN(c3ccccc3)CC2)[nH]c(=O)[nH]c1=O	IFO 0583	agar diffusion / agar	200 µg/disc	<10 mm
O=c1c(O)c(-c2ccco2)oc2ccc(Cl)cc12	-	agar diffusion	100 µg/mL	18 mm
Cc1cccc(CSc2c(O)cc(-c3ccccc3)oc2=O)c1	-	agar diffusion	35 µg/disc	32.5 mm
CC(C)N(C(C)C)N1C(=O)/C(=C/c2ccccc2)SC1=S	ATCC 2091	agar diffusion / agar	100 mg/mL	10–15 mm
CCc1c(=O)[nH]c(=O)n2[nH]nnc12	IFO 0583	agar diffusion / agar	200 µg/disc	<10 mm
CCCCc1nc(Cl)c(-c2cc(-c3ccc(C)cc3)nc3c2C(=O)c2ccccc2-3)n1Cc1ccccc1	MTCC 7253	agar diffusion	10 µg/disc	10 mm
COc1cc(-n2cnc3ccccc3c2=O)cc(OC)c1OC	DMBC 005002	agar diffusion / agar	10 mg/mL	11.4 mm
O=C1C2=C(C(=O)c3ccccc31)C1(C(=O)Nc3ccc(Cl)cc31)N1CCCC21	-	agar diffusion	50 µg/mL	0 mm
C[C@H]1[C@H](O)[C@@H](C)/C=C/C=C/C=C/C=C/C=C/C=C/C=C/[C@H](O[C@@H]2O[C@H](C)[C@@H](O)[C@H](N)[C@@H]2O)C[C@@H]2O[C@](O)(C[C@@H](O)C[C@@H](O)CC[C@H](O)[C@@H](O)C[C@@H](O)CC(=O)O[C@H]1C)C[C@H](O)[C@H]2C(=O)O	PSSCK!7010	agar diffusion / agar	2500 µg/mL	16.67 mm
CCN(CC)N1C(=O)C(C(Sc2ccccc2)c2cccc(C)c2)SC1=S	ATCC 2091	agar diffusion / agar	100 mg/mL	16–20 mm
C[C@@H]1[C@H](O)[C@@H](C)/C=C/C=C/CC/C=C/C=C/C=C/C=C/C(O[C@H]2O[C@H](C)[C@@H](O)[C@H](N)[C@@H]2O)CC2O[C@](O)(CC(O)C(O)CCC(O)CC(O)CC(O)CC(=O)O[C@H]1C)CC(O)C2C(=O)O	ATCC 10231	agar diffusion	30 µg/disc	25 mm
CCCCc1nc(Cl)c(-c2cc(-c3ccccc3)nc3c2C(=O)c2ccccc2-3)n1Cc1ccccc1	MTCC 7253	agar diffusion	10 µg/disc	10 mm
Cc1nc2ccc(Br)cc2c(=O)n1-c1ccc(Br)cc1	-	agar diffusion / agar	50 µg/mL	26.73 mm
C[C@@H]1[C@H](O)[C@@H](C)/C=C/C=C/CC/C=C/C=C/C=C/C=C/C(O[C@H]2O[C@H](C)[C@@H](O)[C@H](N)[C@@H]2O)CC2O[C@](O)(CC(O)C(O)CCC(O)CC(O)CC(O)CC(=O)O[C@H]1C)CC(O)C2C(=O)O	-	agar diffusion	10 µg/disc	25 mm
O=c1c(O)c(-c2ccc(F)cc2)oc2ccc(Cl)cc12	-	agar diffusion	100 µg/mL	15 mm
CCCCc1nc(Cl)c(-c2cc(-c3cccc4ccccc34)nc3c2C(=O)c2ccccc2-3)n1Cc1ccccc1	MTCC 7253	agar diffusion	10 µg/disc	12 mm
Cc1ccc(N2NOC(=O)C2S(=O)(=O)Nc2nc(-c3c(F)cc(Cl)cc3Cl)cs2)cc1	MTCC 227	agar diffusion	250 µg/mL	21 mm
C[C@@H]1[C@H](O)[C@@H](C)/C=C/C=C/CC/C=C/C=C/C=C/C=C/C(O[C@H]2O[C@H](C)[C@@H](O)[C@H](N)[C@@H]2O)CC2O[C@](O)(CC(O)C(O)CCC(O)CC(O)CC(O)CC(=O)O[C@H]1C)CC(O)C2C(=O)O	ATCC 10231	agar diffusion	100 µg/disc	30 mm
Cc1ccc(N2NOC(=O)C2S(=O)(=O)Nc2nc(-c3ccc(Br)cc3)cs2)cc1	MTCC 227	agar diffusion	250 µg/mL	21 mm
Cc1cc(Cl)nc(NC(c2cccc([N+](=O)[O-])c2)P(=O)(Oc2ccccc2)Oc2ccccc2)n1	-	agar diffusion / agar	10 µg/mL	17 mm
Cc1nc2ccc(Br)cc2c(=O)n1-c1ccccc1[N+](=O)[O-]	-	agar diffusion / agar	50 µg/mL	15.96 mm
O=C(O)c1cn(C2CC2)c2cc(N3CCNCC3)c(F)cc2c1=O	ATCC 10231	agar diffusion	5 µg	6 mm
CC(/C=C/[C@@]1(C)[C@H](C)CCC(=O)[C@@H]1C)=C\Cc1c(O)c(Cl)c(C)c(C=O)c1O	ATCC 64548	agar diffusion	10 µg/disc	10 mm
O=c1c(O)c(-c2ccco2)oc2ccccc12	-	agar diffusion	100 µg/mL	18 mm
C[C@@H]1[C@H](O)[C@@H](C)/C=C/C=C/CC/C=C/C=C/C=C/C=C/C(O[C@H]2O[C@H](C)[C@@H](O)[C@H](N)[C@@H]2O)CC2O[C@](O)(CC(O)C(O)CCC(O)CC(O)CC(O)CC(=O)O[C@H]1C)CC(O)C2C(=O)O	MTCC 227	agar diffusion	250 µg/mL	22 mm
C(/C=C/c1ccccc1)=NCCNCCN=C/C=C/c1ccccc1.[Cl][Hg][Cl]	-	agar diffusion	30000 µg/mL	32 mm
CC(C)=CCOc1ccc(C2CC(=O)c3ccc(O)cc3O2)cc1	ATCC 14053	agar diffusion / agar	100 µg/mL	0 mm
COC(=O)CCCNC(=O)CSC1=CC(=O)c2cccc(OC)c2C1=O	FRCA	agar diffusion	100 µg/well	0 mm
Cc1cc(Cl)nc(NC(c2ccc(Cl)cc2)P(=O)(Oc2ccccc2)Oc2ccccc2)n1	-	agar diffusion / agar	10 µg/mL	10 mm
O=C1NC(=S)SC1C(Sc1ccccc1)c1ccccc1	ATCC 2091	agar diffusion / agar	100 mg/mL	10–15 mm
CCCc1c(N2CCN(c3ccccc3OC)CC2)[nH]c(=O)[nH]c1=O	IFO 0583	agar diffusion / agar	200 µg/disc	<10 mm
CCCCc1nc(Cl)c(-c2cc(-c3cn(S(=O)(=O)c4ccc(C)cc4)c4ccccc34)nc3c2C(=O)c2ccccc2-3)n1Cc1ccccc1	MTCC 7253	agar diffusion	10 µg/disc	13 mm
CCOC(=O)C1=C(N)Oc2[nH]c(=S)[nH]c(=O)c2C1c1ccc(Cl)cc1	-	agar diffusion / agar	10000 µg/mL	13 mm
COc1cc2oc(=O)ccc2cc1CC(O)C(C)(C)O	-	agar diffusion	250 µg/disc	8 mm
C=C1CC[C@H]2O[C@]2(C)CC[C@@H]2[C@@H]1CC2(C)C	-	agar diffusion	35 µg/disc	33 mm
Cc1ccc(N2NOC(=O)C2S(=O)(=O)Nc2ccc(-n3c(-c4ccc([N+](=O)[O-])cc4)nc4ccccc4c3=O)cc2)cc1	MTCC 227	agar diffusion	250 µg/mL	24 mm
C[C@@H]1[C@H](O)[C@@H](C)/C=C/C=C/CC/C=C/C=C/C=C/C=C/C(O[C@H]2O[C@H](C)[C@@H](O)[C@H](N)[C@@H]2O)CC2O[C@](O)(CC(O)C(O)CCC(O)CC(O)CC(O)CC(=O)O[C@H]1C)CC(O)C2C(=O)O	CCMB 226	agar diffusion	0.00001 µg/mL	24.2 mm
COc1ccc(-n2c(-c3ccc(Cl)cc3)nc3ccccc3c2=O)cc1OC	DMBC 005002	agar diffusion / agar	10 mg/mL	10.3 mm
COc1cc(C2C(C#N)=C(N)Oc3[nH]c(=S)[nH]c(=O)c32)cc(OC)c1OC	-	agar diffusion / agar	10000 µg/mL	10 mm
Cc1nc2ccc(Br)cc2c(=O)n1-c1ccccc1	-	agar diffusion / agar	50 µg/mL	11.87 mm
CC(=O)Oc1c(-c2ccc(Cl)cc2)oc2ccc(Cl)cc2c1=O	-	agar diffusion	100 µg/mL	20 mm
O=c1c2ccccc2ncn1NC(c1cccc([N+](=O)[O-])c1)P(=O)(Oc1ccccc1)Oc1ccccc1	-	agar diffusion / agar	10 µg/mL	10 mm
CCN(CC)N1C(=O)C(C(Sc2ccccc2)c2ccc(OC)cc2)SC1=S	ATCC 2091	agar diffusion / agar	100 mg/mL	4–9 mm
Cc1nc2ccc(Br)cc2c(=O)n1-c1ccc(Cl)c(Cl)c1	-	agar diffusion / agar	50 µg/mL	27.16 mm
COc1ccc(CCn2cnc3ccccc3c2=O)cc1OC	DMBC 005002	agar diffusion / agar	10 mg/mL	13.3 mm
Cc1ccc(N2NOC(=O)C2S(=O)(=O)Nc2nc3cc(F)ccc3s2)cc1	MTCC 227	agar diffusion	250 µg/mL	21 mm
CC(C)=CCOc1ccc(C2CC(=O)c3c(O)cc(O)cc3O2)cc1O	ATCC 10231	agar diffusion / agar	100 µg/mL	10 mm
CCN(CC)N1C(=O)C(C(Sc2ccccc2)c2ccc(Cl)cc2)SC1=S	ATCC 2091	agar diffusion / agar	100 mg/mL	16–20 mm
CCOC(=O)C1=C(N)Sc2[nH]c(=S)[nH]c(=S)c2C1c1ccc(Cl)cc1	-	agar diffusion / agar	10000 µg/mL	14 mm
O=C1NC(=S)SC1C(Sc1ccccc1)c1c(Cl)cccc1Cl	ATCC 2091	agar diffusion / agar	100 mg/mL	10–15 mm
Clc1ccccc1C(c1ccccc1)(c1ccccc1)n1ccnc1	RCMB 005002	agar diffusion / agar	10 mg/mL	26.1 mm
CC(C)(CN=C/C=C/c1ccccc1[N+](=O)[O-])CN=C/C=C/c1ccccc1[N+](=O)[O-]	-	agar diffusion	5 mg/disc	18 mm
Cc1cccc(C(Sc2ccccc2)C2SC(=S)NC2=O)c1	ATCC 2091	agar diffusion / agar	100 mg/mL	16–20 mm

Repeating the first 7 entries:

O=c1c(O)c(-c2ccc(Cl)cc2)oc2ccccc12 ; method: agar diffusion ; tested at: 100 µg/mL ; result: 14 mm
NC(=NCCCCCCN=C(N)/N=C(\N)Nc1ccc(Cl)cc1)/N=C(\N)Nc1ccc(Cl)cc1 ; strain: ATCC 10231 ; method: agar diffusion ; tested at: 2000 µg/mL ; result: 11.33 mm
CC(=O)Oc1c(-c2ccco2)oc2ccc(Cl)cc2c1=O ; method: agar diffusion ; tested at: 100 µg/mL ; result: 25 mm
CCCc1c(=O)[nH]c(=O)n2[nH]nnc12 ; strain: IFO 0583 ; method: agar diffusion / agar ; tested at: 200 µg/disc ; result: <10 mm
Cc1cc(Cl)nc(NC(c2ccc(O)cc2O)P(=O)(Oc2ccccc2)Oc2ccccc2)n1 ; method: agar diffusion / agar ; tested at: 10 µg/mL ; result: 15 mm
CN[C@@H]1[C@@H](O)[C@@H](O[C@@H]2[C@@H](O)[C@H](O[C@H]3O[C@H](CN)CC[C@H]3N)[C@@H](N)C[C@H]2N)OC[C@]1(C)O ; strain: ATCC 10231 ; method: agar diffusion ; tested at: 10 µg ; result: 6 mm
C[C@@H]1[C@H](O)[C@@H](C)/C=C/C=C/CC/C=C/C=C/C=C/C=C/C(O[C@H]2O[C@H](C)[C@@H](O)[C@H](N)[C@@H]2O)CC2O[C@](O)(CC(O)C(O)CCC(O)CC(O)CC(O)CC(=O)O[C@H]1C)CC(O)C2C(=O)O ; method: agar diffusion / agar ; tested at: 40000 µg/mL ; result: 22 mm